Measured values published in PMC12175177 (Frontiers in Pharmacology, 2025).

Tested on: SARS-CoV-2 A2.5 variant
Format: cell-based

Compound: COc1cc(NC(C)CCCN)c2ncccc2c1 (stereo not shown) [Primaquine Phosphate (PQ), Primaquine Phosphate]
- SI (selectivity index = CC50%/IC50%): 1
